Anti-infective test results gathered from many reports (values: NIAID ChemDB through PubChem).

Shared fields: tests in culture; species: Herpes simplex virus 1; endpoint: EC50

Two numbers with a dash give a range or band. An empty or dashed field is not shown. Rows are shuffled and stem from different studies. ECn: concentration that inhibits the pathogen or its effect by n%.

structure | cells | method | strain | value
O=c1[nH]cnc2c1ncn2C1C[C@H](CO)[C@@H](CO)C1 | E6SM |  | KOS (TK-) | >100 µg/mL
O=[N+]([O-])c1c(N2CC[N+]3(CC2)CC[N+]2(CCNCC2)CC3)ncnc1N1CC[N+]2(CC1)CC[N+]1(CCN(c3ncnc(N4CC[N+]5(CC4)CC[N+]4(CCNCC4)CC5)c3[N+](=O)[O-])CC1)CC2 | GMK | cytopathic effect |  | 3.71 µg/mL
CC(C)Nc1ncnc2c1ncn2C1C[C@H](CO)[C@@H](CO)C1 | E6SM |  | KOS | >100 µg/mL
CCN(CC)C(=O)N1CCN(c2ncnc(N3CC[N+]4(CC3)CC[N+]3(CCN(c5ncnc(N6CCN(C(=O)N(CC)CC)CC6)c5[N+](=O)[O-])CC3)CC4)c2[N+](=O)[O-])CC1 | GMK | cytopathic effect |  | 5.15 µg/mL
O=c1[nH]c(=O)n([C@H]2C[C@H](O)[C@@H](COP(=O)(O)O)O2)cc1CCc1ccccc1 | PRK | cytopathic effect | McIntyre | 30 µg/mL
OC[C@H]1O[C@@H](c2cc(C(F)(F)F)c(F)cc2F)C[C@@H]1O | E6SM | cytopathic effect | McIntyre | >400 µg/mL
[O-][n+]1onc2c(N3CC[N+]4(CC3)CC[N+]3(CCN(c5ncnc6no[n+]([O-])c56)CC3)CC4)ncnc21 | GMK | cytopathic effect |  | 16.17 µg/mL
OC[C@H]1C[C@@H](n2cnc3c(Cl)ncnc32)C2CC21 | VERO | cytopathic effect |  | 0.1–1 µg/mL
Nc1cc([C@H]2C[C@H](O)[C@@H](CO)O2)c(F)cc1F | E6SM | cytopathic effect | KOS | >400 µg/mL
CCc1cn([C@H]2C[C@H](O)[C@@H](CO)O2)c(N)nc1=O | PRK | cytopathic effect | VMW1837 (TK-) | >400 µg/mL
O=C(Nc1ccc(NC(=S)Nc2cc3ccccc3o2)cc1)c1nccc2ccccc12 | VERO | ELISA |  | >10 µg/mL
CC1(C)[C@@H](CCO)C[C@H]1n1nnc2c(N)nc(N)nc21 | E6SM | cytopathic effect | TK-/B2006 | 70 µg/mL
Nc1nc(N)c2ncn([C@@H]3C[C@H](CO)C4CC43)c2n1 | VERO | cytopathic effect |  | 1–10 µg/mL
CC1(C)[C@@H](CCO)C[C@H]1n1nnc2c(=O)[nH]c(N)nc21 | E6SM | cytopathic effect | TK-/B2006 | 40 µg/mL
O=Cc1cn([C@H]2C[C@H](O)[C@@H](CO)O2)c(=O)[nH]c1=O | PRK | cytopathic effect | VDX348 | 1 µg/mL
OC[C@H]1O[C@H](c2cc(I)c(F)cc2F)C[C@@H]1O | E6SM | cytopathic effect | KOS/ACV-R | >400 µg/mL
[N-]=[N+]=NCc1cn([C@H]2C[C@H](O)[C@@H](CO)O2)c(=O)[nH]c1=O | PRK | cytopathic effect | VDO374 | 4 µg/mL
O=c1[nH]c(=O)n([C@@H]2C[C@H](CO)C[C@H]2CO)cc1I | E6SM |  | KOS (TK-) | >100 µg/mL
Cc1nc(Cl)c([N+](=O)[O-])c(N2CC[N+]3(CC2)CC[N+]2(CCN(c4nc(C)nc(Cl)c4[N+](=O)[O-])CC2)CC3)n1 | GMK | cytopathic effect |  | 2.02 µg/mL
Cc1cc([C@@H]2C[C@H](O)[C@@H](CO)O2)c(F)cc1F | E6SM | cytopathic effect | F | >400 µg/mL
Nc1nc2c(ncn2COCCO)c(=O)[nH]1 | VERO | plaque count | C42 (acyclovir-resistant) | 10 µM
O=c1[nH]c(=O)n([C@H]2C[C@H](O)[C@@H](COP(=O)(O)O)O2)cc1/C=C/c1cccc([N+](=O)[O-])c1 | PRK | cytopathic effect | McIntyre | >100 µg/mL
Cc1cn([C@@H]2OC[C@H](CO)[C@H]2N=[N+]=[N-])c(=O)[nH]c1=O | E6SM | cytopathic effect | KOS TK- acyclovir-resistant | 240 µg/mL
Nc1nc2c(ncn2CC[C@H](O)CO)c(=O)[nH]1 | SIRC | plaque count | C42 | 7 µM
Cc1cn([C@@H]2OC[C@H](CO)[C@H]2O)c(=O)[nH]c1=O | E6SM | cytopathic effect | KOS | 9.6 µg/mL
O=c1[nH]c(=O)n([C@H]2C[C@H](O)[C@@H](CO)O2)cc1I | PRK | cytopathic effect | KOS | 0.15 µg/mL
COCc1cn([C@H]2C[C@H](O)[C@@H](CO)O2)c(=O)[nH]c1=O | RK-13 | plaque count | Ara-A-resistant | 7 µM
CC1(C)[C@@H](CCO)C[C@H]1n1cnc2c(=O)[nH]c(N)nc21 | E6SM | cytopathic effect | KOS | 300 µg/mL
Nc1nc2c(ncn2COCCO)c(=O)[nH]1 | VERO | plaque count | AP-resistant | >40 µg/mL
O=c1[nH]c(=O)n([C@H]2C[C@H](O)[C@@H](CO)O2)cc1/C=C/Br | PRK | cytopathic effect | McIntyre | 0.02 µg/mL
Cc1cc([C@@H]2C[C@H](O)[C@@H](CO)O2)c(F)cc1Cl | E6SM | cytopathic effect | VMW 1837 | >400 µg/mL
CCN(CC)C(=S)Sc1ncnc(N2CC[N+]3(CC2)CC[N+]2(CCN(c4ncnc(SC(=S)N(CC)CC)c4[N+](=O)[O-])CC2)CC3)c1[N+](=O)[O-] | GMK | cytopathic effect |  | 24.44 µg/mL
CC1(C)[C@@H](CCO)C[C@H]1n1cnc2c(=O)[nH]cnc21 | E6SM | cytopathic effect | KOS | >400 µg/mL
CSCc1cn([C@H]2C[C@H](O)[C@@H](CO)O2)c(=O)[nH]c1=O | PRK | cytopathic effect | VEW257 | 20 µg/mL
Nc1ncnc2c1ncn2[C@@H]1C[C@H](CO)C2CC21 | VERO | cytopathic effect |  | 0.1–1 µg/mL
Cc1cc([C@H]2C[C@H](O)[C@@H](CO)O2)c(F)cc1Cl | E6SM | cytopathic effect | KOS | >400 µg/mL
O=C(Nc1ccccc1NC(=S)NCCOc1cccc(Cl)c1)c1ccccc1F | VERO | ELISA |  | 10 µg/mL
OC[C@H]1O[C@H](c2ccc(F)cc2F)C[C@@H]1O | E6SM | cytopathic effect | KOS | >400 µg/mL
Nc1nc2c(ncn2COCCO)c(=O)[nH]1 | HFF | plaque count | HL-3 | 0.3 µg/mL

Repeating the final 6 entries:

structure	cells	method	strain	value
CSCc1cn([C@H]2C[C@H](O)[C@@H](CO)O2)c(=O)[nH]c1=O	PRK	cytopathic effect	VEW257	20 µg/mL
Nc1ncnc2c1ncn2[C@@H]1C[C@H](CO)C2CC21	VERO	cytopathic effect		0.1–1 µg/mL
Cc1cc([C@H]2C[C@H](O)[C@@H](CO)O2)c(F)cc1Cl	E6SM	cytopathic effect	KOS	>400 µg/mL
O=C(Nc1ccccc1NC(=S)NCCOc1cccc(Cl)c1)c1ccccc1F	VERO	ELISA		10 µg/mL
OC[C@H]1O[C@H](c2ccc(F)cc2F)C[C@@H]1O	E6SM	cytopathic effect	KOS	>400 µg/mL
Nc1nc2c(ncn2COCCO)c(=O)[nH]1	HFF	plaque count	HL-3	0.3 µg/mL